Laboratory results published in PubChem BioAssay AID624416 (The Scripps Research Institute Molecular Screening Center, 2012).
The list shows a part of the results, in another mix than the full data. The source made the active and inactive calls. No stated cut-off is given here; in the data, active means inhibition above about 8.5%; inactive means the rest.

The molecules below were run on HIV-1 gp120 / PG9 antibody interaction (assay: binders of HIV-1 gp120 antibody PG9, primary screen, biochemical, TR-FRET (AID 624416)). Conditions: TR-FRET gp120-PG9 antibody binding; at 6.7 µM; stronger effect = higher value.
In the case of C/C(N)=N\P(=O)(OCc1ccccc1)OCc1ccccc1, the inhibition is reported as inactive: 2.27%.
For Nc1ccc([As](=O)(O)c2ccc([N+](=O)[O-])cc2)cc1, the inhibition was inactive: -1.98%.
In the case of C(Cc1nn[nH]n1)Cc1nn[nH]n1, the inhibition is reported as inactive: -0.64%.
For c1ccc(-c2nn[nH]n2)c(-c2nn[nH]n2)c1, the inhibition was inactive: -0.44%.
With Cc1ccc(NP(=O)(Oc2cccc(C)c2)Oc2cccc(C)c2)nc1 the inhibition was inactive: 0.68%.
With O=C(NC1CCS(=O)(=O)C1)NP(=S)(Oc1ccccc1)Oc1ccccc1 (stereo not drawn) the inhibition was inactive: 0.28%.
With CCNC(=S)/N=C(\N)N[N+](=O)[O-] the inhibition was inactive: 1.4%.
For O=P1(N(CCCl)CCCl)OCCC2CCCCN21 (stereo not drawn), the inhibition was inactive: 0.75%.
O=C(OC1CN2CCC1CC2)c1ccccc1 (stereo not drawn) was tested, and the inhibition was inactive: -1.82%.
For CCC(=O)N1C2C3N(C(=O)CC)C1C1N(C(=O)CC)C(C(N1C(=O)CC)N3C(=O)CC)N2C(=O)CC, the inhibition was inactive: 0.12%.
COC(=O)c1cc2c(s1)N=C(c1ccccc1)N(C)P2(=O)N1CCOCC1 (stereo not drawn) was tested, and the inhibition was inactive: 1.03%.
CC(=O)NC(SC(=S)N(CC(C)C)CC(C)C)C(Cl)(Cl)Cl (stereo not drawn) was tested, and the inhibition was inactive: -0.56%.
Cc1ccc(OP(=O)(Nc2ccccn2)Oc2ccc(C)cc2)cc1 was tested, and the inhibition was inactive: -1.03%.
In the case of Cc1ccccc1OP(=O)(Nc1ccccn1)Oc1ccccc1C, the inhibition is reported as inactive: 0.18%.
For CC(NC(=O)COC(=O)C(O)(c1ccccc1)c1ccccc1)c1ccccc1 (stereo not drawn), the inhibition was inactive: 0.34%.
In the case of CN(C)C(=O)Oc1noc2ccccc12, the inhibition is reported as inactive: -2.46%.
In the case of O=c1c2cc([N+](=O)[O-])ccc2[nH]c2c([N+](=O)[O-])cc([N+](=O)[O-])cc12, the inhibition is reported as inactive: -1.35%.
For O=P1(Nc2nc3ccc(Cl)cc3s2)COc2ccccc2O1 (stereo not drawn), the inhibition was inactive: 2.5%.
For CCOc1ccc(C2=NCC(CBr)S2)cc1 (stereo not drawn), the inhibition was inactive: -3.5%.
CC(C)(C)C(=O)NC(Sc1ccccc1)C(Cl)(Cl)Cl (stereo not drawn) was tested, and the inhibition was inactive: -2.17%.
For CCc1cc(O)c([N+](=O)[O-])c(C)c1[N+](=O)[O-], the inhibition was inactive: -0.9%.
For Cc1ccccc1CN(C)C(=O)COC(=O)C(O)(c1ccccc1)c1ccccc1, the inhibition was inactive: 0.52%.
For C[C@@H]1C=CCP(=O)(Oc2ccccc2)O1 (stereo partly drawn), the inhibition was inactive: 0.34%.
For C[C@H]1OP(=O)(Oc2ccccc2)C[C@@H]2O[C@@H]21 (stereo partly drawn), the inhibition was inactive: 1.83%.
N#C/C(=C\c1ccc(N(CCBr)CCBr)cc1)C(N)=O was tested, and the inhibition was inactive: -3.09%.
CC(=O)c1ccc(N2CC2c2ccncc2)cc1 (stereo not drawn) was tested, and the inhibition was inactive: -1.11%.
With COC(=O)C1(C)COP(=O)(NCc2ccccc2)OC1 (stereo not drawn) the inhibition was inactive: 0.31%.
With CC(=O)Nc1ccc([As](=O)(O)O)c(O)c1 the inhibition was inactive: 0.65%.
With CC(=O)Nc1ccc(Oc2c([N+](=O)[O-])cc([N+](=O)[O-])cc2[N+](=O)[O-])cc1 the inhibition was inactive: 0.59%.
With CN(C(=O)Cc1ccc(Cl)c(Cl)c1)[C@H]1CCCC[C@H]1N1CCCC1 the inhibition was inactive: -0.09%.
In the case of Cc1ccc(N/C(=N/P(=O)(N2CCOCC2)N2CCOCC2)N2CCOCC2)cc1, the inhibition is reported as inactive: 0.82%.
With NC(=O)c1cc([N+](=O)[O-])cc([N+](=O)[O-])c1N the inhibition was inactive: 0.25%.
With Clc1ccc(Cl)c(NC2=NCC(CBr)S2)c1 (stereo not drawn) the inhibition was inactive: -1.87%.
With CN1CCCC(OC(=O)C(c2ccccc2)c2ccccc2)C1 (stereo not drawn) the inhibition was inactive: 1.68%.
With COc1ccccc1OP(=O)(Nc1ccc(C)cn1)Oc1ccccc1OC the inhibition was inactive: -0.86%.
For Cc1ccc(OP(=O)(Nc2nccs2)Oc2ccc(C)cc2)cc1, the inhibition was inactive: 0.53%.
In the case of Oc1ccccc1CNc1ccccn1, the inhibition is reported as inactive: 1.9%.
With O=C(NC(Sc1ccncn1)C(Cl)(Cl)Cl)c1ccccc1 (stereo not drawn) the inhibition was inactive: -0.09%.
CC(C)CC(=O)NC(Sc1ccc(Cl)cc1)C(Cl)(Cl)Cl (stereo not drawn) was tested, and the inhibition was inactive: -0.42%.
Nc1cc(N)c2nonc2c1[N+](=O)[O-] was tested, and the inhibition was inactive: -5.69%.
With CN(C)P(=O)(N(C)C)n1c(Nc2ccccc2)nnc1-c1ccccc1 the inhibition was inactive: -1.3%.
For O=P(Nc1nc2ccc(Cl)cc2s1)(c1ccccc1)c1ccccc1, the inhibition was inactive: -0.98%.
With O=C(O)c1ccccc1[As](=O)(O)O the inhibition was inactive: -0.78%.
CCCC1OP(N)(=O)OCC1CC (stereo not drawn) was tested, and the inhibition was inactive: -0.72%.
CCn1c(=O)n(C2CCN(CC3CCCCCCC3)C[C@H]2CO)c2ccccc21 (stereo partly drawn) was tested, and the inhibition was inactive: 1.13%.
CCOP(=O)(Nc1ccccc1)OCC was tested, and the inhibition was inactive: 0.59%.
Cc1cc(SC(NC(=O)c2ccc(F)cc2)C(Cl)(Cl)Cl)ncn1 (stereo not drawn) was tested, and the inhibition was inactive: -1.96%.
For CN(C(=O)Cc1ccc(Cl)c(Cl)c1)[C@H]1CCCC[C@@H]1N1CCCC1, the inhibition was inactive: -1.87%.
With Cc1ccc(NP(=O)(Oc2ccccc2F)Oc2ccccc2F)nc1 the inhibition was inactive: -3.2%.
For Nc1cccc2ccc([As](=O)(O)O)cc12, the inhibition was inactive: -4.19%.
CN(C(=O)Cc1ccccc1)C1CC[C@@]2(CCCO2)C[C@@H]1N1CCCC1 (stereo partly drawn) was tested, and the inhibition was inactive: 0.78%.
In the case of CCN(N=Nc1nonc1N)c1nonc1N, the inhibition is reported as inactive: -0.08%.
O=P1(N(CCCl)CCCl)OCCCS1 (stereo not drawn) was tested, and the inhibition was inactive: 0.93%.
In the case of O=C(Nc1cc([As](=O)(O)O)ccc1O)c1ccccc1, the inhibition is reported as inactive: -1.96%.
In the case of O=[N+]([O-])c1ncn(CCn2ncnc2[N+](=O)[O-])n1, the inhibition is reported as inactive: 1.59%.
For CC(C)(C)C(=O)NC(Sc1ccncn1)C(Cl)(Cl)Cl (stereo not drawn), the inhibition was inactive: -2.38%.
In the case of O=C(O)CNc1ccc([As](=O)(O)O)cc1, the inhibition is reported as inactive: 0.28%.
For O=[N+]([O-])c1cccc(NC2=NCC(CBr)S2)c1 (stereo not drawn), the inhibition was inactive: 0.16%.
COC(=O)C1(C)COP(=O)(Nc2ccccc2)OC1 (stereo not drawn) was tested, and the inhibition was inactive: 0.8%.
For COc1ccc(C2=NCC(CBr)S2)cc1 (stereo not drawn), the inhibition was inactive: 0.29%.
In the case of Cc1ccc(NP(=O)(Oc2ccccc2)Oc2ccccc2)nc1, the inhibition is reported as inactive: -0.51%.
For O=[N+]([O-])c1cc([N+](=O)[O-])c(CCNc2ccccc2)c([N+](=O)[O-])c1, the inhibition was inactive: 0.06%.
With CCc1nc2c(n1)c1c(non1O)c1c2no[n+]1[O-] the inhibition was inactive: -2.26%.
With CC(=O)N1C2C3N(C(C)=O)C1C1N(C(C)=O)C(C(N1C(C)=O)N3C(C)=O)N2C(C)=O the inhibition was inactive: 0.57%.
For O=[N+]([O-])c1cccc2n[nH]nc12, the inhibition was inactive: 3.33%.
In the case of CCN(/C(=N/P(=O)(N1CCOCC1)N1CCOCC1)N1CCOCC1)c1ccc(OC)cc1, the inhibition is reported as inactive: -3.63%.
For Nc1ccc([As](=O)(O)c2ccc(N)cc2)cc1, the inhibition was inactive: 0.9%.
For C[N+]1=C2C=CC=CC=C2SC12C([N+](=O)[O-])=CC([N+](=O)[O-])=C[C-]2[N+](=O)[O-] (stereo not drawn), the inhibition was inactive: -7.2%.
In the case of c1cc(-c2nn[nH]n2)ccc1-c1nn[nH]n1, the inhibition is reported as inactive: -1.44%.
With CC1CCN(C(=O)Oc2c(Cl)cc(Cl)c3cccnc23)CC1 the inhibition was inactive: 0.93%.
With CC(C)=N/N=C(\N)N[N+](=O)[O-] the inhibition was inactive: 1.52%.
CC(C)c1nc(Nc2ccccc2)n(P(=O)(N(C)C)N(C)C)n1 was tested, and the inhibition was inactive: -1.82%.
With CN(C)C(=O)OCCc1n(C)cc[n+]1C the inhibition was inactive: -0.22%.
